The term inhibition denotes the change of the read-out against control, counted positive when it falls.

This is one part of the list. Some salts and complexes are drawn in separate pieces, as the source files them; their charges need not balance. The source made the active and inactive calls. Rule as the data show it: inconclusive = inhibition above about 80% without an active follow-up result; inactive = below that; test concentration not stated here.

The results in this text go back to PubChem BioAssay AID1626 (SRMLSC, 2009).

A short description of the test: M. tuberculosis H37Rv growth inhibitors, H37Rv strain (AID 1626).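 Also: bacteria incubated seven days before Alamar blue readout; 0% = bacteria only wells and 100% = bacteria with antibiotic wells.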 The settings on record: active compounds read high, concentration not given here.
On to `CP(=O)(OC12CC3CC(CC(C3)C1)C2)OC12CC3CC(CC(C3)C1)C2`, for which the inhibition is inactive: 4.41%. With `CCOC(=O)c1ccc(NP(C)(=O)Oc2ccc(Cl)cc2)cc1` (centres undefined), the inhibition was inactive: 12.1%. Consider `CN(C)C(=O)c1c([N+](=O)[O-])cc([N+](=O)[O-])cc1[N+](=O)[O-]`, for which the inhibition was inactive: -1.48%. Consider `CP(=O)(Nc1ccc(Cl)cc1)Oc1ccc(F)cc1` (centres undefined), for which the inhibition was inactive: 0.2%. Turning to `CC(C)(C)c1ccc(OP(C)(=O)O)cc1`, the inhibition was inactive: 6.62%.

On to `COc1ccccc1OP(C)(=O)Nc1ccccc1Br` (centres undefined), for which the inhibition is inactive: -1.67%. As for `CCc1ccc(OP(C)(=O)Nc2cccnc2)cc1` (centres undefined), the figure is inactive: 3.47%. The same measure for `CP(=O)(Oc1ccccc1)N1CCOC1=O` (centres undefined): inactive: -11.7%. Regarding `O=C(OCCCN1CCCC1)C(O)(c1ccccc1)C1CCCCC1` (centres undefined), the inhibition is inactive: 0.09%. For the compound `COc1ccccc1OP(C)(=O)Nc1c(C)n(C)n(-c2ccccc2)c1=O` (centres undefined), the inhibition is inactive: -5.32%. As for `COc1ccc(OP(C)(=O)Nc2ccc(Br)cc2)cc1` (centres undefined), the figure is inactive: 16.2%; as for `CCN(CC)CC(O)COC(=O)C(O)(c1ccccc1)C1CCCCC1` (centres undefined), inactive: -5.37%; as for `CCc1ccc(OP(C)(=O)O)cc1`, inactive: -6.03%. For `COc1ccccc1OP(C)(=O)Nc1ccc(C)cc1C` (centres undefined), the inhibition was inactive: 0.69%.

For `CP(=O)(Nc1ccccn1)Oc1ccccc1` (centres undefined), the inhibition was inactive: 2.71%.

Regarding `Cc1c(NP(C)(=O)Oc2ccc(C(C)C)cc2)c(=O)n(-c2ccccc2)n1C` (centres undefined), the inhibition is inactive: 2.6%. As to `CN(C)CCOC(=O)C(O)(c1ccccc1)C1CCCC1` (centres undefined), the inhibition was inactive: -2.48%. For `COc1ccc(OP(C)(=O)Nc2ccccn2)cc1` (centres undefined), the inhibition was inactive: 2.91%. For the compound `COc1ccccc1OP(C)(=O)Nc1ccc(Br)cc1` (centres undefined), the inhibition was inactive: 8.11%.

In the case of `CP(=O)(OCCOc1ccccc1)OCCOc1ccccc1`, the inhibition is inactive: 3.55%. The same measure for `CP(=O)(Nc1ccc(Cl)cc1Cl)Oc1ccccc1` (centres undefined): inactive: 10.8%; for `Cc1nc2ccc3ccccc3c2o1.O=[N+]([O-])c1cc([N+](=O)[O-])c(O)c([N+](=O)[O-])c1`: inactive: -4.98%. As for `COc1ccc(OP(C)(=O)Nc2ccccc2Br)cc1` (centres undefined), the figure is inactive: -1.04%; as for `COc1ccccc1OP(C)(=O)Nc1ccc(C)c(C)c1` (centres undefined), inactive: -6.47%; as for `Cc1cc(C)cc(OP(C)(=O)Nc2cccc(C(F)(F)F)c2)c1` (centres undefined), inactive: 2.62%. Take `CP(=O)(Nc1ccccc1)Oc1ccc(F)cc1` (centres undefined): the inhibition was inactive: 18.8%. As to `CCN(CC)CCCOC(=O)C(O)(c1ccccc1)C1CCCCC1` (centres undefined), the inhibition was inactive: -10.5%. In the case of `COc1ccc(OP(C)(=O)Nc2ccc(SC(F)(F)F)cc2)cc1` (centres undefined), the inhibition is inactive: 7.03%. The same measure for `CCOC(=O)c1ccc(NP(C)(=O)Oc2ccc(F)cc2)cc1` (centres undefined): inactive: 5.95%; for `COc1ccc2c(c1O)-c1c(O)c(OC)cc3c1[C@H](C2)[N+](C)(C)CC3.O=[N+]([O-])c1cc([N+](=O)[O-])c([O-])c([N+](=O)[O-])c1[O-]`: inactive: -2.9%. On to `O=C(OCCN1CCN(CCOCc2ccccc2)CC1)C(O)(c1ccccc1)c1ccccc1`, for which the inhibition is inactive: -0.28%. The same measure for `O=C(OC1CN2CCC1CC2)c1ccc([N+](=O)[O-])cc1` (centres undefined): inactive: -12.2%; for `CC(C)c1ccc(OP(C)(=O)Nc2ccc(SC(F)(F)F)cc2)cc1` (centres undefined): inactive: 14.2%. Turning to `CP(=O)(Nc1ccccc1F)Oc1ccccc1` (centres undefined), the inhibition is inactive: 0.78%. As to `Cc1ccccc1NP(C)(=O)Nc1ccccc1C`, the inhibition is inactive: -1.88%. For `CP(=O)(Nc1ccc2c(c1)OCCO2)Oc1ccccc1` (centres undefined), the inhibition was inactive: 7.44%.

On to `CCOP(C)(=S)SCC(=O)NC(C)(CC)C(=O)O` (centres undefined), for which the inhibition is inactive: 0.74%. The same measure for `CP(=O)(Nc1ccc(SC(F)(F)F)cc1)Oc1ccc(F)cc1` (centres undefined): inactive: 12.3%; for `Cc1cc(-c2cccc3ccccc23)c(C)cn1.O=[N+]([O-])c1cc([N+](=O)[O-])c(O)c([N+](=O)[O-])c1`: inactive: 4.88%; for `O=[N+]([O-])c1cc([N+](=O)[O-])c(NCC2CCS(=O)(=O)C2)c([N+](=O)[O-])c1` (centres undefined): inactive: -6.16%.

For `O=[N+]([O-])c1ccc(OP2(=O)COCCO2)cc1` (centres undefined), the inhibition was inactive: -1.56%. On to `COc1ccc(NP(C)(=O)Oc2ccccc2OC)cc1` (centres undefined), for which the inhibition is inactive: 7.23%. The same measure for `CN(C)CCOC(=O)C(O)(c1ccccc1)C1CCCCC1` (centres undefined): inactive: 9.96%; for `COc1ccc(OP(C)(=O)Nc2cccc(Br)c2)cc1` (centres undefined): inactive: 11.7%; for `CP(=O)(Nc1ccc(SC(F)(F)F)cc1)Oc1ccccc1` (centres undefined): inactive: 12%. As for `CCCOc1ccc(NP(C)(=O)Oc2ccc(Cl)cc2)cc1` (centres undefined), the figure is inactive: 34.4%; as for `COc1ccccc1OP(C)(=O)Nc1c(C)cccc1C` (centres undefined), inactive: -8.95%; as for `CN1CCCCC1COC(=O)C1(O)c2ccccc2CCc2ccccc21` (centres undefined), inactive: -3.48%. Take `CCOC(=O)C(CC)C1=NC(C)(C)Cc2ccccc21.O=[N+]([O-])c1cc([N+](=O)[O-])c(O)c([N+](=O)[O-])c1` (centres undefined): the inhibition was inactive: -5.32%. As for `O=[N+]([O-])c1cc([N+](=O)[O-])c(Nc2nnnn2CCO)c([N+](=O)[O-])c1`, the figure is inactive: -0.87%. On to `Cc1nc2ccc3ccccc3c2s1.O=[N+]([O-])c1cc([N+](=O)[O-])c(O)c([N+](=O)[O-])c1`, for which the inhibition is inactive: 3.54%. Turning to `O=[N+]([O-])c1cc([N+](=O)[O-])c(-n2nnc3ccccc32)c([N+](=O)[O-])c1`, the inhibition was inactive: -1.48%. As for `CP(=O)(Nc1cccc(Br)c1)Oc1ccccc1` (centres undefined), the figure is inactive: 8.93%; as for `Cc1cc(C)cc(OP(C)(=O)Nc2ccccn2)c1` (centres undefined), inactive: -6.1%. `Cc1ccc(C)c(NP(C)(=O)Oc2ccccc2)c1` (centres undefined): the inhibition is inactive: 0.55%. Turning to `Cc1cc(C)cc(OP(C)(=O)Nc2ccc(C)cc2C)c1` (centres undefined), the inhibition is inactive: 0.76%. On to `CCOC(=O)c1ccc(NP(C)(=O)Oc2cc(C)cc(C)c2)cc1` (centres undefined), for which the inhibition was inactive: 5.03%. Consider `COc1ccccc1OP(C)(=O)Nc1cccc(Br)c1` (centres undefined), for which the inhibition was inactive: 7%. On to `CC1=NCCc2c1[nH]c1ccccc21.O=[N+]([O-])c1cc([N+](=O)[O-])c(O)c([N+](=O)[O-])c1`, for which the inhibition was inactive: 1.71%. As to `COc1ccccc1OP(C)(=O)Nc1cc(Cl)ccc1C` (centres undefined), the inhibition is inactive: 3.82%. For `Cc1cc(C)cc(OP(C)(N)=O)c1` (centres undefined), the inhibition is inactive: 0.88%. Turning to `CCOC(=O)c1ccc(NP(C)(=O)Oc2ccccc2)cc1` (centres undefined), the inhibition is inactive: 0.85%. Take `COc1ccccc1OP(C)(=O)Nc1ccc(C)cc1` (centres undefined): the inhibition was inactive: 8.29%. Regarding `Cc1cccc(C)c1OP(C)(N)=O` (centres undefined), the inhibition was inactive: -0.35%.

For the compound `CC(C)(C)c1ccc(OP(C)(=O)Nc2ccc(SC(F)(F)F)cc2)cc1` (centres undefined), the inhibition was inactive: 13.5%. Consider `O=[N+]([O-])c1ccc2c(c1)C=Nc1ccccc1O2`, for which the inhibition is inactive: 5.23%.

`CCN(CC)CCCOC(=O)C(O)(c1ccccc1)c1ccccc1`: the inhibition was inactive: -4.75%. Take `CP(=O)(Nc1ccccn1)Oc1ccc(Cl)cc1` (centres undefined): the inhibition is inactive: 4.9%. For the compound `CCOP(C)(=S)SCC(=O)NC(C)C(=O)O` (centres undefined), the inhibition was inactive: -3.41%. On to `CCOC(=O)c1ccc(NP(C)(=O)Oc2ccc(OC)cc2)cc1` (centres undefined), for which the inhibition is inactive: 16.1%. The same measure for `Cc1cc(C)cc(OP(C)(=O)Nc2ccc(SC(F)(F)F)cc2)c1` (centres undefined): inactive: 6.75%; for `CCc1ccc(OP(C)(=O)N2CCN(c3ccc([N+](=O)[O-])cc3)CC2)cc1` (centres undefined): inactive: 14.9%; for `CP(=O)(NC(=O)Nc1ccccc1)Oc1ccccc1` (centres undefined): inactive: 2.49%.

In the case of `CP(=O)(Oc1ccccc1)OC(c1ccccc1)C(F)(F)F` (centres undefined), the inhibition is inactive: 0.01%. As for `Cc1cccc(C)c1OP(C)(=O)Nc1ccc(SC(F)(F)F)cc1` (centres undefined), the inhibition was inactive: 6.12%. The same measure for `CP(=O)(Nc1ccc(SC(F)(F)F)cc1)Oc1ccc(Cl)cc1` (centres undefined): inactive: 11.5%; for `COc1ccccc1OP(C)(=O)Nc1ccccc1` (centres undefined): inactive: 9.46%. The same measure for `CP(=O)(Nc1ccccc1Br)Oc1ccccc1` (centres undefined): inactive: 10.9%; for `CP(=S)(Nn1cnnc1)Oc1ccccc1` (centres undefined): inactive: 7.07%.
